Values are the deposited “Percent Effect”, in %. The record does not define 0% and 100%; most values in the screen are far below 50% and negative numbers occur (in some assays of this library far below -100). The entries come from a sample that favours strong results. A dash means the value is not listed here; it may have been measured.

Mtb glucose medium: 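Whole-cell growth test on Mycobacterium tuberculosis, read after 3 days in glucose-containing 7H9 medium; the read-out is not stated. Concentration: 500 µM. Direction is inferred from retests: higher values go with more growth inhibition. About 18,000 compounds were tested under these conditions; 7.9% (about 1,400) showed 50% or more at least once.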
Mtb cholesterol medium: 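Phenotypic screen: M. tuberculosis growth, cholesterol and DPPC medium, 4 days; the read-out is not stated. Tested at 500 µM. Higher reads as more growth inhibition (inferred: compounds with an IC50 in retests scored well above the rest). Of about 18,000 compounds tested this way, about 900 (5%) reached 50% or more in at least one test.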

Compound	Mtb glucose medium	Mtb cholesterol medium
Cn1cc(C(N)=O)nn1	-	2.058
c1ccc(-c2noc(CN3CCNCC3)n2)cc1	24.43	26.93
CS(=O)(=O)CC1(CNCc2cccnc2)CC1	-2.635	-
CC1CCc2onc(C(=O)Nc3cccnc3)c2C1 (stereo not shown)	-5.613	-
O=c1ccc2ccccc2n1CCCn1cnnn1	-	27.02
Cn1cncc1CCNS(=O)(=O)c1cccs1	-	18.48
Cc1cc(CNC(=O)C2CCCCCN2C)n(C)n1 (stereo not shown)	10.77	-
Cn1cc(CNCC2COc3ccccc3O2)cn1 (stereo not shown)	29.09	-
CC1CNCCS(=O)(=O)C1 (stereo not shown)	11.63	-
COCCN(C)S(=O)(=O)c1cc(F)c(C)cc1F	51.44	-
CCN1CCN(c2ccccc2O)CC1	60.37	67.63
O=C(NCCCNCc1ccccc1)c1ccco1	7.599	14.57
COc1ncccc1CN(C)C(=O)CNC(C)=O	7.481	-5.031
CCCc1nnc(NCc2cccnc2)o1	6.196	-
Clc1cncc(NCC2CN(C3CC3)CCO2)n1 (stereo not shown)	52.28	-
O=C1NCCC1C1(O)CCOCC1 (stereo not shown)	-	-1.022
Cc1cc(N2CCNCC2)ccn1	4.598	-
OC1CCN(Cc2nnnn2-c2ccccc2Br)CC1	-	33.36
CCC(N)C(=O)Nc1ccc2c(c1)C(=O)CCC2 (stereo not shown)	56.59	28.58
CNC(=O)c1ccc(S(=O)(=O)NC2CC2)o1	-	-4.973
Cc1cccc(NC(=O)NCc2ccnn2C)n1	21.56	-
CCOc1cc(NCc2ccccc2CO)ncn1	-1.912	-
O=C(Cc1ccccc1)NC1CCNCC1	-3.139	-
NC(=O)C(c1ccccc1)N1CCC2(CC1)OCCO2 (stereo not shown)	-	13.82
CC1CN(Cc2ccccc2)CC1=O (stereo not shown)	-	27.38
O=C(NC1CCc2ccccc21)c1cc[nH]n1 (stereo not shown)	31.09	-
CCC(N)(CC)CNS(=O)(=O)c1cccc2nonc12	-21.04	-
COc1ccc(C(O)CNC2CCSCC2)cc1 (stereo not shown)	15.69	-
N#Cc1ccc(C(=O)NCCCc2ncc[nH]2)cn1	4.582	-
CNCc1csc(C(C)OC)n1 (stereo not shown)	7.558	-
Cc1ccc(CC(C)N(C)C(=O)CCCN)cc1 (stereo not shown)	-	-15.11
CCCNC(=O)CSc1nnc(NCC2CCCO2)s1 (stereo not shown)	10.77	8.722
COc1cccc(CNC(=O)[C@H]2C[C@@H](O)CN2)c1OC	-0.4514	-
C[C@@H](O)CNCc1cnn(-c2ccc(F)cc2)c1	31.78	20.24
N#Cc1ccc(S(=O)(=O)N2CCCC[C@@H]2CO)cc1	22.71	-
Cc1cc(N)nc(SCc2cc(C)on2)n1	-	5.575
NC(c1ccccc1)C1CCOCC1 (stereo not shown)	-	7.139
CC(C)(C)[C@@H]1NC(=O)CC[C@H]1N	12.15	-
CC(C)n1ccnc1CN1CCN(c2nc[nH]n2)CC1	3.897	-
CNC(C)c1cccnc1 (stereo not shown)	7.834	-
Fc1ccc(CSc2nnnn2CC2CCCO2)cc1 (stereo not shown)	89.4	84.57
O=C(CCn1cccn1)N1CCc2sccc2C1	59.18	48.09
CCOc1cc(CN(C)CCN(C)C)ccc1O	-4.907	-
NCCS(=O)(=O)c1ccc(Br)cc1	41.09	-
NCCN1CCN(c2ccc(F)cc2)CC1	44.43	32.43
CCN(CCn1cccn1)C(=O)c1c(O)cccc1O	-	2.488
Cc1cccc(NCC2(CS(C)(=O)=O)CC2)n1	7.197	-
c1cc(CNc2ncnc3[nH]ncc23)c2c(c1)OCO2	21.99	-
C=C(C)CN1CCC(NC(=O)NCCS(C)(=O)=O)CC1	-	2.758
Cc1noc(OCC(=O)N(C)Cc2ccc(F)cc2)n1	13.23	-
O=c1[nH]c(-c2ccncc2)nc2c1CCC2	-8.989	-
OCCc1cnn(-c2ccc(F)cn2)c1	-	5.622
O=C1CC(CNc2ncccn2)c2ccccc2N1 (stereo not shown)	-	-1.276
O=C1CCC(O)CN1 (stereo not shown)	-10.7	-
CNCc1csc(C(C)(C)O)n1	-10.22	-
CS(=N)(=O)c1ccccc1Br (stereo not shown)	10.7	-
CCOC(=O)CNC(=O)c1ccc2c(c1)OCCO2	48.91	61.92
Cc1cc(C(=O)NN2CCOCC2)c(C)o1	5.104	-
CNC(C)c1ccc(S(C)(=O)=O)cc1 (stereo not shown)	5.777	-
OCC(CO)(CO)NCc1ccc(Cl)cc1Cl	16.51	-
Cc1ocnc1C(=O)Nc1ncccc1Cl	-	-16.21
Cc1ccc2[nH]c(C(=O)N3CCN(C)CC3)cc2c1	69.23	67.55
OCC(O)CSCc1c(Cl)ccc2cccnc12 (stereo not shown)	18.78	-19.04
Cc1ncccc1CNc1c(C)c(C)nn1CCO	5.678	-
CS(=O)(=O)NCC1CCCN(Cc2cccnc2N)C1 (stereo not shown)	8.474	-
CCOC(=O)c1cnn(-c2ccc(OCC)cc2)c1N	57.47	51.87
CC1COc2ccccc2N1C(=O)c1cnsn1 (stereo not shown)	-28.11	-
CCN1CCC(NC(=O)C2CC2)CC1	8.232	-
Cn1ccc(CNC(=O)c2cccnc2C(F)(F)F)c1	-4.511	-
COCCS(=O)(=O)Cc1cnn(-c2ccccc2)c1	37.69	-
CN(Cc1ccccc1OCCO)C1CCOCC1	3.274	-
CCc1ncc(CN(C)C(=O)c2nccnc2N)s1	36.26	-
CC(=O)N1CCN(c2ccc(CO)cc2)CC1	-8.077	-
Cn1cc(CNc2ccc(F)cc2)cn1	27.84	-
COc1ccnc(N)c1	-	-13.33
O=C(NCc1ccccc1CO)Nc1nncs1	4.505	-
CC(C)(C)c1ccccc1S(=O)(=O)NCCN	-4.504	-
COc1cccc2c1CCNCC2	69.93	52.2
CS(=O)(=O)NCc1ccc(CN2CCCC2=O)cc1	4.31	-
CS(=O)(=O)NCCNC(=O)C1CCN(S(C)(=O)=O)CC1	-	-19.22

10 of the entries, repeated:

CCN1CCC(NC(=O)C2CC2)CC1 gave Mtb glucose medium: 8.232%.
NCCN1CCN(c2ccc(F)cc2)CC1 gave Mtb glucose medium: 44.43%; Mtb cholesterol medium: 32.43%.
NCCS(=O)(=O)c1ccc(Br)cc1 gave Mtb glucose medium: 41.09%.
O=C1CC(CNc2ncccn2)c2ccccc2N1 (stereo not shown) gave Mtb cholesterol medium: -1.276%.
Cn1cc(C(N)=O)nn1 gave Mtb cholesterol medium: 2.058%.
Cc1cc(CNC(=O)C2CCCCCN2C)n(C)n1 (stereo not shown) gave Mtb glucose medium: 10.77%.
N#Cc1ccc(S(=O)(=O)N2CCCC[C@@H]2CO)cc1 gave Mtb glucose medium: 22.71%.
CC(C)(C)c1ccccc1S(=O)(=O)NCCN gave Mtb glucose medium: -4.504%.
CC1CCc2onc(C(=O)Nc3cccnc3)c2C1 (stereo not shown) gave Mtb glucose medium: -5.613%.
CC(C)(C)[C@@H]1NC(=O)CC[C@H]1N gave Mtb glucose medium: 12.15%.

Data taken from ChEMBL document CHEMBL3988442, “University of Dundee, Small-Polar-MMV Screening Library” (2021).